Data taken from publication PMC2188527.

Target: HLA-A2 (human (endogenous in lymphoblastoid cell line))
Test: radioligand binding

M.57-68 (peptide)
IC50: 10 µM
